# Experimental data reported in patent US11737461B2, “Citrate perhydrates and uses thereof” (BIOREM ENGINEERING SA, priority 2018, dated 2023).
# Test system: Staphylococcus aureus MRSA
Substance,MIC [mM],MIC % [%],MIC value [µg/mL],"growth-inhibiting efficacy (MIC), times greater than that of hydrogen peroxide alone (vs hydrogen peroxide alone) [times]","growth-inhibiting efficacy (MIC), times greater than sodium citrate (vs sodium citrate) [times]"
Povidone-iodine [PVP-I (Povidone-iodine)],17.13,0.625,6250,–,–
anhydrous disodium citrate monoperhydrate [disodium citrate perhydrate],0.12,0.003,30,230,103
